The text below walks through data of patent US10500274B2, “Methods for reducing viral load in HIV-1 infected patients” (CytoDyn Inc., priority 2008, dated 2019).

The assay has as its system HIV-1JR-FL envelope-mediated membrane fusion.

`COC[C@@H](c1ccc(C(F)(F)F)cc1)N1CCN(C2(C)CCN(C(=O)c3c(C)ncnc3C)CC2)C[C@@H]1C` [SCH-D, 1-[(4,6-dimethyl-5-pyrimidinyl)carbonyl]-4-[4-[2-methoxy-1(R)-4-(trifluoromethyl)phenyl]ethyl-3(S)-methyl-1-piperazinyl]-4-methylpiperidine] yielded an IC50 of 6.1 nM.
